Target: human FcγRII (CD32) expressed on K562 cells (human) (UniProt P12318)

“armY-ACE2 fusion protein (Protein M fused to human angiotensin-converting enzyme 2)” was tested, and the percent of cells in gate M1 was 5.9%.

— patent US20220089656A1
